Data as given in PubChem BioAssay AID624099 (ICCB-Longwood, 2012).

Test: 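Human genes that papillomavirus E2 requires to repress the HPV18 LCR promoter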 (primary screen)
System: human C33A cervical carcinoma cells (HPV-negative) stably expressing BPV1 E2 and an HPV18 LCR luciferase reporter
Knock-down reagent: siRNA pool against human genes, 40 nM
Time to read-out: 72 h
Measured: 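HPV18 LCR reporter light per well, converted to plate-wise z-scores that exclude control wells, and averaged over triplicate plates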
Reading the numbers: mean z-score and z-score: higher = stronger reporter signal, weaker E2 silencing
Call rule: 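Mean z ≥ 2 together with z ≥ 2 in two or more of the three replicates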
In all, the deposit lists about 21,000 reagents; below is an unselected part. 497 of all reagents (2.4%) count as active. 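Higher z means weaker E2 silencing; only reporter increases were scored, and knock-downs that hurt cell survival may mask genuine repressor factors.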 A number with no mark means an inactive call. Reagent sequences are not shown.

no.	Target gene	mean z-score	z-score, replicate A	z-score, replicate B	z-score, replicate C
1	TBKBP1	0.09	-0.47	-0.44	1.18
2	TMEM218	-0.39	-0.16	-0.61	-0.41
3	DRC1	0.59	0.23	0.98	0.56
4	IDH3B	0.43	0.96	0.11	0.21
5	LINC01483	0.74	0.49	0.67	1.05
6	POLR2E	-1.83	-1.63	-2.04	-1.83
7	LINC00698	0.02	-0.06	-0.04	0.15
8	LINC01106	0.44	0.15	0.48	0.7
9	FUT3	1.9	1.93	1.81	1.94
10	AGPS	-0.48	-0.44	-0.42	-0.6
11	UTP23	-0.43	-0.66	-0.33	-0.29

Looked up above:
TMEM218, mean z-score = -0.39
LINC01483, z-score, replicate C = 1.05

Next reagents:
no.	Target gene	mean z-score	z-score, replicate A	z-score, replicate B	z-score, replicate C
12	DOK3	0.44	-0.35	1.56	0.13
13	GGPS1	0.11	0.21	-0.12	0.24
14	LOC401922 (retired record)	-0.56	-0.29	-0.59	-0.8
15	RPL17	-2.03	-2.1	-2.07	-1.92
16	VCF2	-0.88	-0.85	-1.01	-0.79
17	ADGRF4	-0.16	-0.41	-0.2	0.15
18	PSMD6	0.32	0.27	0.19	0.51
19	P2RY12	-0.92	-0.91	-0.8	-1.06
20	NGRN	2.72 (active)	3.47	1.92	2.78
21	EXOC6B	2.09 (active)	2.16	1.98	2.12
22	ATP1B4	-0.2	-0.08	-0.37	-0.14
23	CMTM3	0.75	0.72	0.63	0.91
